Anti-infective test results gathered from many reports (values: NIAID ChemDB through PubChem).

All rows: tests in culture; agent: HIV-1

An empty or dashed field is not shown. ECn is the concentration giving n% inhibition of infection, replication or growth. Conditions beyond the fields shown may differ between rows.

structure	cell line	mutations	method	strain	read-out	result
CC(=O)N[C@@H](CSC(C)=O)C(=O)NCCSC(=O)c1ccccc1	MDM	-	RT activity	BaL	EC50	<150 µM
CN(C[C@@H](CCN1CCC2(CC1)CS(=O)(=O)c1ccccc12)c1ccc(Cl)c(Cl)c1)S(=O)(=O)c1ccccc1	PBMC	-	-	YU2	EC95	<12 µM
NS(=O)(=O)c1ccc(NC(=O)c2ccccc2Sc2ccccc2C(=O)Nc2ccc(S(N)(=O)=O)cc2)cc1	CEM	-	XTT	-	EC50	>100 µM
CNCc1ccc2c(c1)[C@H](NC(=O)C(=O)Nc1ccc(Cl)c(F)c1)[C@@H](CN=C(N)N)C2	Cf2Th-CD4/CCR5	-	luciferase / entry	JR-FL	EC50	>100 µM
Cc1cnc2n1S(=O)(=O)c1cc(C(=O)NCC(C)C)c(Cl)cc1S2	CEM	-	cytopathic effect / XTT	-	EC50	>200 µM
NS(=O)(=O)c1ccc(NC(=O)c2ccccc2O)cc1	CEM	-	XTT	-	EC50	>100 µM
CN(C[C@@H](CCN1CCC2(CC1)CS(=O)c1ccccc12)c1ccc(Cl)c(Cl)c1)S(=O)(=O)c1ccc(-c2ccccn2)s1	PBMC	-	-	YU2	EC50	<12.5 µM
NS(=O)(=O)c1ccc(NC(=O)c2cccc(SSc3cccc(C(=O)Nc4ccc(S(N)(=O)=O)cc4)c3)c2)cc1	CEM	-	XTT	-	EC50	>100 µM
CC(C)C[C@@H]1NC(=O)[C@@H](CC(C)C)NC(=O)[C@H](C(C)C)NC(=O)[C@H]2CSSC[C@@H](NC1=O)C(=O)N2	TZM-bl	-	ELISA	SF162	EC50	1.4 µM
CC(=O)CCC(=O)OCCOCn1c(C)nc(C(C)C)c1Sc1cc(C)cc(C)c1	MT-4	-	cytopathic effect / MTT	IIIB	EC50	0.008 µg/mL
CC(=O)OC[C@H]1O[C@@H](SCCOP(=O)(O)OC[C@H]2O[C@@H](n3cc(C)c(=O)[nH]c3=O)C[C@@H]2N=[N+]=[N-])[C@H](OC(C)=O)[C@@H](OC(C)=O)[C@@H]1OC(C)=O	CEM + CEM-SS	-	RT activity	LAI	EC50	0.01 µM
O=C(O[C@H]1CCOC1)N(Cc1ccccc1)CC(O)CN(CC1CCCC1)S(=O)(=O)c1ccccc1	CEM	-	p24	IIIB	EC50	<1 µM
CN1C(=O)[C@@H](c2cc(Cl)c(O)c(Cl)c2)NC(=O)C2NC(=O)[C@H](c3cc(Cl)c(O)c(Cl)c3)NC(=O)[C@@H](NC(=O)C(=O)c3cc(Cl)c(O)c(Cl)c3)Cc3c[nH]c4c(cccc34)-c3cc2cc(c3O)Oc2ccc(cc2)CC1C(=O)N[C@@H](C(=O)O)c1ccc(O)cc1	-	-	ELISA / cell fusion	Clinical isolate	EC50	<1.3 µM
CCc1c(Cc2cccc(Cc3nc(SC(C)C)[nH]c(=O)c3CC)c2)nc(SC(C)C)nc1OC(C)C	MT-4	RT-Y181C	cytopathic effect / MTT	NNRTI-resistant	EC50	>43 µM
NCCNS(=O)(=O)c1cccc2cnccc12	-	-	-	LAI	EC50	>16.7 µM
N#Cc1cc2ccc(N[C@@H]3CCNC3)cc2n(-c2ccc([N+](=O)[O-])cc2)c1=O	MT-4	-	GFP / reporter gene	IIIB	EC50	4.78 µM
CC(C)CN(C[C@@H](O)[C@H](Cc1ccccc1)NC(=O)O[C@H]1CO[C@H]2OCC[C@H]21)S(=O)(=O)c1ccc(N)c(NCC2CCCO2)c1	MT-4	-	GFP	IIIB WT	EC50	0.00437 µM
O=S(=O)(c1cccc2c(Cl)cccc12)N1CCCNCC1	-	-	-	LAI	EC50	>16.7 µM
O=S(=O)(O)O.OCC(O)C(O)C(OC1OC(CO)C(O)C(OC2OC(CO)C(O)C(OC3OC(CO)C(O)C(OC4OC(CO)C(O)C(OC5OC(CO)C(O)C(O)C5O)C4O)C3O)C2O)C1O)C(O)CO	MT-4	-	cytopathic effect / MTT	IIIB	EC50	>300 µg/mL
CNCCNS(=O)(=O)c1cccc2cnccc12	-	-	-	LAI	EC50	>16.7 µM
O=C(c1ccccc1)N(CCc1ccccc1)C[C@H](O)CN(CC1CCCC1)S(=O)(=O)Cc1cnco1	CEM	-	p24	IIIB	EC50	<1 µM
CC(=O)N[C@@H](CSC(=O)C(C)C)C(=O)NCCSC(C)=O	MDM	-	RT activity	BaL	EC50	~150 µM
CCc1c(Cc2cccc(Cc3nc(SC(C)C)[nH]c(=O)c3CC)c2)nc(SC(C)C)[nH]c1=O	MT-4	RT-K103N Y181C	cytopathic effect / MTT	RT-K103N+Y181C NNRTI-resistant	EC50	>36 µM
Cc1cn(C2CC3C(O)C(C)C3(N=[N+]=[N-])O2)c(=O)[nH]c1=O	H9	-	p24 / antigen	IIIB	EC50	100 µM
COC(=O)[C@H](Cc1ccccc1)NC(=O)[C@H](CCC(=O)Nc1ccn([C@H]2CS[C@@H](CO)O2)c(=O)n1)NC(=O)C[C@H](O)C(CC(C)C)NC(=O)[C@@H](NC(=O)[C@H](Cc1c[nH]c2ccccc12)NC(C)=O)C(C)C	MT-4	-	syncytia	-	EC50	10 µM
Cc1cc(Cl)cc2c1S(=O)(=O)n1ccnc1S2	CEM	-	cytopathic effect / XTT	-	EC50	>200 µM
CC(=O)N[C@@H](CSC(=O)C(C)C)C(=O)NCCSC(=O)C(C)(C)C	MDM	-	RT activity	BaL	EC50	<150 µM
C=CCOCn1c(Cc2cccc(C(F)(F)F)c2)c(CC)c(=O)[nH]c1=O	MT-4	-	MTT	N119 (Y181C)	EC50	3.2 µM
Nc1nc(Nc2ccc(Cl)cc2)nn1S(=O)(=O)c1cnn(-c2nccc(C(F)(F)F)n2)c1	TZM-bl	-	luciferase / RT activity	IIIB	EC50	0.2409 µM
CC[C@H](C)[C@H](NC(=O)c1ccccc1SSc1ccccc1C(=O)N[C@H](C(=O)O)[C@@H](C)CC)C(=O)O	MT-2	-	XTT	AZT-resistant	EC50	6.4 µM
CC(C)C[C@H](NC(=O)[C@@H](NC(=O)[C@@H](N)Cc1c[nH]c2ccccc12)C(C)C)[C@@H](O)CC(=O)NC(Cc1ccccc1)c1ccccc1	MT-4	-	syncytia	-	EC50	5 µM
O=CN(/C=C/c1ccc(Cl)cc1)CCNS(=O)(=O)c1cccc2cnccc12	-	-	-	LAI	EC50	>16.7 µM
Nc1ccc(S(=O)(=O)N(CCC(O)CN(CC2CCCC2)S(=O)(=O)c2ccccc2)CC2CCCC2)cc1	CEM	-	p24	IIIB	EC90	1 µM
CC(C)CC(NC(=O)[C@H](C)NC(=O)C[C@H](O)C(CC(C)C)NC(=O)[C@@H](NC(=O)[C@H](Cc1ccc(O)cc1)NC(=O)OCc1ccccc1)C(C)C)[C@@H](O)CC(=O)Nc1ccn([C@H]2CS[C@@H](CO)O2)c(=O)n1	MT-4	-	syncytia	-	EC50	50 µM
O=C(O[C@H]1CCOC1)N(CCc1ccccc1)C[C@H](O)CN(CC1CCCC1)S(=O)(=O)c1ccc(O)cc1	CEM	-	p24	IIIB	EC90	0.1 µM
C=CCOCn1c(Cc2cc(C(F)(F)F)cc(C(F)(F)F)c2)c(C(C)C)c(=O)[nH]c1=O	MT-4	-	MTT	EFV-resistant (K103R V179D P225H)	EC50	>100 µM
CC(C)NS(=O)(=O)c1ccc(NC(=O)c2ccccc2SSc2ccccc2C(=O)Nc2ccc(S(=O)(=O)NC(C)C)cc2)cc1	CEM	-	XTT	-	EC50	16 µM
Cc1cn([C@H]2C[C@H](N=[N+]=[N-])[C@@H](COP(=O)(OCCSC(=O)C(C)(C)C)OCCSC(=O)C(C)(C)C)O2)c(=O)[nH]c1=O	MT-4	-	cytopathic effect / MTT	IIIB	EC50	0.81 µM
CC(=O)N[C@@H](CSC(=O)C(C)(C)C)C(=O)NCCSC(=O)C(C)(C)C	MDM	-	RT activity	BaL	EC50	<150 µM
CS[C@@]1(Cc2ccccc2)NC(=O)[C@@](Cc2ccccc2O)(SC)NC1=O	293T	-	ELISA	NL4-3	EC50	4.9 µM
N#Cc1c(N)c2ccc(-c3ccccc3)cc2n(-c2ccc([N+](=O)[O-])cc2)c1=O	MT-4	-	GFP / reporter gene	IIIB	EC50	20.21 µM
C#CCOCn1c(Cc2cccc(C(F)(F)F)c2)c(CC)c(=O)[nH]c1=O	MT-4	-	MTT	N119 (Y181C)	EC50	5.5 µM
COc1ccc(S(=O)(=O)N(CC(C)C)C[C@@H](O)CCN(CC2CCCC2)S(=O)(=O)Cc2cncs2)cc1	CEM	-	p24	IIIB	EC50	<1 µM
COc1ccc(S(=O)(=O)N(CC(C)C)C[C@@H](O)[C@H](Cc2ccccc2)NC(=O)O[C@H]2CCO[C@H]3COC[C@H]32)cc1	MT-2	-	MTT	LAI	EC50	1 µM
N#Cc1cc2ccc(N[C@H]3CCNC3)cc2n(-c2ccc([N+](=O)[O-])cc2)c1=O	MT-4	-	GFP / reporter gene	IIIB	EC50	6.54 µM
CC(C)CN(C[C@@H](O)[C@H](Cc1ccccc1)NC(=O)O[C@H]1CO[C@H]2OCC[C@H]21)S(=O)(=O)c1ccc(N)c(NCc2cccc(F)c2)c1	MT-4	-	GFP	IIIB WT	EC50	0.00129 µM
Nc1ccc(NC(=O)c2ccccc2SSc2ccccc2C(=O)Nc2ccc(N)cc2)cc1	CEM	-	XTT	-	EC50	7.8 µM
CC(C)OC(=O)c1cc(NC(=S)OC(C)C)ccc1Cl	CEM	RT-V106A	syncytia	IIIB	EC50	2.06 µM
N#CCc1ccc(Nc2nc(N)n(S(=O)(=O)c3cccc4ccc(CC#N)cc34)n2)cc1	TZM-bl	-	luciferase / RT activity	IIIB	EC50	0.000182 µM
CCOCn1c(Cc2ccccc2)c(C(C)C)c(=O)[nH]c1=O	MT-4	RT-K103N Y181C	cytopathic effect / MTT	RT-K103N+Y181C NNRTI-resistant	EC50	>100 µM
O=C(O)c1ccc(NC(=O)c2ccccc2SSc2ccccc2C(=O)Nc2ccc(C(=O)O)cc2)cc1	CEM	-	XTT	-	EC50	3 µM
CC(C)CN(C[C@@H](O)[C@H](Cc1ccccc1)NC(=O)O[C@H]1CO[C@H]2OCC[C@H]21)S(=O)(=O)c1ccc(N)c(NCc2ccco2)c1	MT-4	-	GFP	IIIB WT	EC50	0.00166 µM
Nc1nc(Nc2ccc(Cl)cc2)nn1S(=O)(=O)c1cnn(-c2ccc(C(F)(F)F)cn2)c1	TZM-bl	Y181C/K103N	luciferase / RT activity	IIIB	EC50	>1 µM
Cc1cn([C@H]2C[C@H](N=[N+]=[N-])[C@@H](COP(=O)(O)OCCS[C@@H]3O[C@H](CO)[C@@H](O)[C@H](O)[C@H]3O)O2)c(=O)[nH]c1=O	PBMC	-	RT activity	BaL	EC50	0.02 µM
COC(=O)c1ccccc1SSc1ccccc1C(=O)OC	CEM	-	cytopathic effect / XTT	-	EC50	>9.3 µM
CCOC(=O)C(CC)C(=O)Cc1cccc(Cc2[nH]c(=O)c(CC)c(O)c2CC)c1	MT-4	RT-Y181C	cytopathic effect / MTT	NNRTI-resistant	EC50	>100 µM
CC1CNCCN1S(=O)(=O)c1cccc2cnccc12	-	-	-	LAI	EC50	<16.7 µM
C=CCOCn1c(Cc2cccc(Cc3c(CC)c(=O)[nH]c(=O)n3COCC=C)c2)c(CC)c(=O)[nH]c1=O	MT-4	-	cytopathic effect / MTT	-	EC50	34 µM
CC(C)CN(C[C@@H](O)[C@H](Cc1ccccc1)NC(=O)O[C@H]1CO[C@H]2OCC[C@H]21)S(=O)(=O)c1ccc(N)c(NCc2cccnc2)c1	MT-4	-	GFP	IIIB WT	EC50	0.0832 µM
CC(C)c1c(Cc2ccccc2)n(COCc2ccccc2)c(=O)[nH]c1=O	CEM	-	cytopathic effect	IIIB	EC50	0.016 µM
CC(=O)N[C@@H](CS)C(=O)NCCSC(C)=O	MDM	-	RT activity	BaL	EC50	45 µM
CC(=O)Nc1nc(C)c(S(=O)(=O)N(CC2CCCC2)C[C@@H](O)CN(CCc2ccccc2)C(=O)c2ccccc2)s1	CEM	-	p24	IIIB	EC90	1 µM
CN(C[C@@H](CCN1CCC2(CC1)CS(=O)c1ccccc12)c1ccc(Cl)c(Cl)c1)S(=O)(=O)c1ccccc1	PBMC	-	-	YU2	EC50	<12 µM

For reference, 6 entries again:

structure | cell line | mutations | method | strain | read-out | result
CS[C@@]1(Cc2ccccc2)NC(=O)[C@@](Cc2ccccc2O)(SC)NC1=O | 293T | - | ELISA | NL4-3 | EC50 | 4.9 µM
CC(=O)N[C@@H](CSC(=O)C(C)C)C(=O)NCCSC(C)=O | MDM | - | RT activity | BaL | EC50 | ~150 µM
C=CCOCn1c(Cc2cccc(C(F)(F)F)c2)c(CC)c(=O)[nH]c1=O | MT-4 | - | MTT | N119 (Y181C) | EC50 | 3.2 µM
NS(=O)(=O)c1ccc(NC(=O)c2cccc(SSc3cccc(C(=O)Nc4ccc(S(N)(=O)=O)cc4)c3)c2)cc1 | CEM | - | XTT | - | EC50 | >100 µM
C=CCOCn1c(Cc2cc(C(F)(F)F)cc(C(F)(F)F)c2)c(C(C)C)c(=O)[nH]c1=O | MT-4 | - | MTT | EFV-resistant (K103R V179D P225H) | EC50 | >100 µM
O=S(=O)(O)O.OCC(O)C(O)C(OC1OC(CO)C(O)C(OC2OC(CO)C(O)C(OC3OC(CO)C(O)C(OC4OC(CO)C(O)C(OC5OC(CO)C(O)C(O)C5O)C4O)C3O)C2O)C1O)C(O)CO | MT-4 | - | cytopathic effect / MTT | IIIB | EC50 | >300 µg/mL